Measured values from several laboratories, pooled; numbers as filed in NIAID ChemDB.

Common to all: enzyme or target tests; species: HIV-1; protein: Integrase

ICn: concentration for n% inhibition. An empty or dashed field is not shown. Fold resistance has wild type as its base. Inhibition is in % at the dose shown (toxicity tests: loss of growth or viability). Lines come from different laboratories, so protocols vary.

smiles,mutations,tested at,read by,endpoint,value
O=CNc1ccc(S(=O)(=O)c2ccc(NC=O)cc2)cc1,,,strand transfer,IC50,>100 µM
CC1CCC[C@@H]2[C@]3(CCC[C@@]12C)C[C@H](c1ccoc1)OC3=O,,25 µg/mL,ELISA / strand transfer,inhibition,9.1%
CC(C)(Oc1ccc(CCNC(=O)c2ccc(Cl)cc2)cc1)C(=O)O,,10 µM,AlphaScreen,inhibition,28.45%
Cc1ccc(S(=O)(=O)n2cc(C(C(=O)O)C(=O)O)c3cc(NC(=O)c4cccc(C)c4O)ccc32)cc1,Y143R,,strand transfer / fluorescence,fold resistance,1
CCC(CCl)NC(=O)Nc1ccc(S(=O)(=O)c2ccc([N+](=O)[O-])cc2)cc1,,,strand transfer,IC50,>100 µM
CCCCNc1cc(C(=O)O)cc(S(N)(=O)=O)c1Oc1ccccc1,,10 µM,AlphaScreen,inhibition,32.15%
CC1=C(O)C(=O)C(C2=C(O)C(=O)C(C)=C(O)C2=O)=C(O)C1=O,,,3′ processing,IC50,2.4 µM
C=C(C)[C@H]1CCC[C@]2(C)CC[C@@]3(C)[C@]4(C)CC[C@H]5C(C)(C)[C@@H](O)CC[C@]5(C)[C@H]4CC[C@]3(C)[C@@H]12,,25 µg/mL,ELISA / strand transfer,inhibition,18.5%
CCOC(=O)C(C(=O)OCC)c1cn(S(=O)(=O)c2ccc(C)cc2)c2ccc(NC(=O)c3ccc(OC)cc3)cc12,G140S,,strand transfer / fluorescence,fold resistance,1
CC1(O)CC2(O)C=CC3=C(C(=O)c4cccc(O)c4C3=O)C2(O)C(=O)C1O,,,3′ processing,IC50,>250 µM
O=C(CCl)Nc1ccc(S(=O)(=O)c2ccc(NC(=O)CCl)cc2)cc1,,,strand transfer,IC50,46.5 µM
CC(O)/C=C/c1ccc2c(c1)c(C(=O)/C=C1\OC(C)(C)OC1=O)cn2Cc1ccc(F)cc1,G140S,,strand transfer / fluorescence,fold resistance,0.8
CC1OC2CC(=O)OC2C2=C1C(=O)c1c(O)cccc1C2=O,,,3′ processing,IC50,80 µM
CCCc1nc2c(C)cc(-c3nc4ccccc4n3C)cc2n1Cc1ccc(-c2ccccc2C(=O)O)cc1,,10 µM,AlphaScreen,inhibition,3.03%
COc1cc2c(c(OC)c1OC)C(=O)C1C2N1C(N)=O,,,3′ processing,IC50,>250 µM
CCC(CO)NC(=O)Nc1ccc(S(=O)(=O)c2ccc([N+](=O)[O-])cc2)cc1,,,3′ processing,IC50,>100 µM
O=C(O)C(=O)/C=C(\O)c1cn(Cc2ccc(F)cc2)c2ccc(Br)cc12,G140S,,strand transfer / fluorescence,fold resistance,1
O=c1oc2c(O)c(O)cc3c(=O)oc4c(O)c(O)cc1c4c23,,25 µg/mL,ELISA / strand transfer,inhibition,21.1%
O=S(=O)(c1ccc(Cl)c(Cl)c1)c1ccc(Cl)c(Cl)c1,,,3′ processing,IC50,>100 µM
O=C1CCCC(=O)NNC(=O)NCCCCCCNC(=O)NN1,,,3′ processing,IC50,>250 µM
Cc1ccc(C(=O)c2ccc(CC(=O)O)n2C)cc1,,10 µM,AlphaScreen,inhibition,11.09%
CC1(C)OC(=O)/C(=C/C(=O)c2cn(Cc3cc(F)ccc3F)c3ccc(Br)cc23)O1,G140S,,strand transfer / fluorescence,fold resistance,0.8
Cc1cc([N+](=O)[O-])c(S(=O)(=O)c2ccccc2)c([N+](=O)[O-])c1,,,strand transfer,IC50,>100 µM
CC1(C)OC(=O)/C(=C/C(=O)c2cn(Cc3ccc(F)cc3)c3ccc(Br)cc23)O1,Y143R,,strand transfer / fluorescence,fold resistance,1
COc1ccc(=NC(C)=O)c2c(O)c3c(=O)c4[nH]c5c(OC)ccc(=NC(C)=O)c5c(O)c4c(=O)c3[nH]c12,,,3′ processing,IC50,>250 µM
CCCCC/C=C/C=C/C(=O)NCC(C)C,,25 µg/mL,ELISA / strand transfer,inhibition,19%
CCOC(=O)C(C(=O)OCC)c1cn(S(=O)(=O)c2ccc(C)cc2)c2ccc(NC(=O)c3cc(F)c(F)c(F)c3)cc12,Y143R,,strand transfer / fluorescence,fold resistance,1
COc1cc(/C=C/c2ccc3ccc(C(=O)O)c(O)c3n2)cc(O)c1O,,,strand transfer,IC50,1.7 µM

Repeating the first 2 entries:

| smiles | mutations | tested at | read by | endpoint | value |
|---|---|---|---|---|---|
| O=CNc1ccc(S(=O)(=O)c2ccc(NC=O)cc2)cc1 |  |  | strand transfer | IC50 | >100 µM |
| CC1CCC[C@@H]2[C@]3(CCC[C@@]12C)C[C@H](c1ccoc1)OC3=O |  | 25 µg/mL | ELISA / strand transfer | inhibition | 9.1% |